Experimental findings from PMC10581193 (Microbiology Spectrum, 2023) are described below.

Amino acid sequences for entries named in this document (tags omitted).
UniProt P9WJF1, whole entry Y314H: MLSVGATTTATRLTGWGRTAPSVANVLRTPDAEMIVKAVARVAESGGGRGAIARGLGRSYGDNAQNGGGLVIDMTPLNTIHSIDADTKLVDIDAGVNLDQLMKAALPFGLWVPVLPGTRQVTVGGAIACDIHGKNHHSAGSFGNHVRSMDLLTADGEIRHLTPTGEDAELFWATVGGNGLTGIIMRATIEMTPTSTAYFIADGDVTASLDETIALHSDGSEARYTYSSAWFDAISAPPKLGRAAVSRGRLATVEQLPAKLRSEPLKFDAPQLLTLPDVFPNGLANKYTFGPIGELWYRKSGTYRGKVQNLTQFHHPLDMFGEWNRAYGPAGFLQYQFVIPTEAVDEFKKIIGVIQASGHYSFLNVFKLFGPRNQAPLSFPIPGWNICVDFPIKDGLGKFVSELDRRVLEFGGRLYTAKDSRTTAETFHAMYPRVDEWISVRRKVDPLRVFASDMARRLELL

SMILES strings stand for the structures.

The target of this test is DprE1 (Mycobacterium tuberculosis, UniProt P9WJF1, Y314H). Briefly: Whole-genome sequencing of spontaneous resistant mutants. As to conditions: SNP in DprE1 of spontaneous H37Ra resistant mutants, genome position 4236718. On the set-up: species or system M. tuberculosis H37Ra.

As for `Cc1nc(C)c(CN2CCOc3c(C(=O)NCC(F)(F)F)cc(C4CC4)cc32)nc1C` [B18, 6-cyclopropyl-N-(2,2,2-trifluoroethyl)-4-((3,5,6-trimethylpyrazin-2-yl)methyl)-3,4-dihydro-2H-benzo[b][1,4]oxazine-8-carboxamide], the Base change is given as 940 TAC→CAC.

Compound `COc1ncnc(Cn2cc(C(=O)NCCO)c3ncc(C)cc32)c1C` [TBA-7371, reference compound] returned a Base change of 940 TAC→CAC.
